In test [1] the target is T1, CBU1838 (CbCBU1838) (Coxiella burnetii, UniProt Q83AP3). Briefly: coupled to EcRmlD, NADPH oxidation at […] nm. As to conditions: 50 mM Hepes pH 7.5, 20 mM MgCl2, NADPH; 30 °C in methods, 37 °C in discussion.
The target of test [2] is T1, CBU1838 (CbCBU1838). The test is described as follows: X-ray crystal structure of the complex. As to conditions: nucleotide part of the active site; residues from both protomers; citrate in the sugar site.

In the case of `Cc1cn([C@H]2C[C@H](O)[C@@H](COP(=O)(O)OP(=O)(O)O[C@H]3O[C@H](C)C(=O)[C@H](O)[C@H]3O)O2)c(=O)[nH]c1=O`, the Michaelis constant (Km) (usually the concentration of substrate that gives half-maximal velocity) on CBU1838 (CbCBU1838) [1] amounted to 2000 µM.

In the case of `Cc1cn([C@H]2C[C@H](O)[C@@H](COP(=O)(O)OP(=O)(O)O)O2)c(=O)[nH]c1=O`, the “X-ray crystal structure of the complex” value at CBU1838 (CbCBU1838) [2] is “The CBU1838-TDP structure showed a citrate molecule (carried over from crystallization) bound”.
